Results of unrelated studies side by side (data: NIAID ChemDB).

Common to all: tests on isolated targets; organism: Hepatitis C virus

Blank or dashed fields: not listed here. ICn is the concentration giving n% inhibition. Inhibition is in % at the dose shown (toxicity tests: loss of growth or viability). Two numbers with a dash give a range or band. Lines come from different laboratories, so protocols vary.

structure	measure	method	tested at	target	strain or isolate	value
O=C(O)[C@H](Cc1ccccc1)N(Cc1cccc(Br)c1)C(=O)c1ccc(Cl)cc1Br	IC50	-	-	RNA-dependent RNA polymerase	-	<5 µM
O=C1/C(=C\c2ccc(Cl)c(Cl)c2)SC(=S)N1NS(=O)(=O)c1cccc([N+](=O)[O-])c1	IC50	-	-	NS5B polymerase	-	≤30 µM
CC(C)[C@H](NC(=O)OC(C)(C)C)C(=O)N1C[C@H](Oc2cc(-c3ccccc3)nc3ccc([N+](=O)[O-])cc23)C[C@H]1C(=O)NC1(C(=O)O)CC1	IC50	-	-	HCV NS3/NS4A protease	-	8.9 µM
C[C@@H](c1ccccc1)N(C(=O)c1ccc(Cl)cc1Cl)c1cc(-c2ccccc2)sc1C(=O)O	IC50	-	-	NS3 ATPase	-	<5 µM
O=C(O)[C@H](Cc1ccccc1)N(Cc1cccc(-c2cc3ccccc3o2)c1)c1ccc(Cl)cc1Cl	IC50	-	-	RNA-dependent RNA polymerase	-	<5 µM
O=c1c(O)c(-c2ccc(O)c(O)c2)oc2cc(O[C@@H]3O[C@H](CO)[C@@H](O)[C@H](O)[C@H]3O)c(O)c(O)c12	inhibition	SYBR Green	20 µM	Replicase complex	J4	42.5%
C=C[C@H]1CC1(NC(=O)[C@@H]1C[C@@H](Oc2cccc3c2CCN(C(C)=O)C3)CN1C(=O)[C@@H](Nc1ccc(C(=O)OC(C)(C)C)cc1)C(C)(C)C)C(=O)O	IC50	-	-	HCV NS3/NS4A protease	-	6 µM
O=C1/C(=C\c2ccc(C(F)(F)F)cc2)SC(=S)N1NS(=O)(=O)c1ccccc1	IC50	-	-	NS5B polymerase	-	≤30 µM
O=c1cc(-c2ccc(O)cc2)oc2cc(O)c(O)c(O)c12	inhibition	SYBR Green	20 µM	Replicase complex	J4	67.4%
CC1CCC(C(=O)N(c2ccncc2)c2cc(-c3ccccc3)sc2C(=O)O)CC1	IC50	-	-	NS3 ATPase	-	<5 µM
O=C(O)[C@H](Cc1ccccc1)N(Cc1cc2ccccc2o1)C(=O)c1ccc(Cl)cc1Cl	IC50	-	-	RNA-dependent RNA polymerase	-	<5 µM
CSCC[C@H](NC(=O)[C@H](CCC(=O)O)NC(=O)[C@H](CC(=O)O)NC(C)=O)C(=O)N[C@@H](CCC(=O)O)C(=O)N[C@@H](Cc1ccc2ccccc2c1)C(=O)N[C@@H](CS)C(=O)O	Ki	-	-	HCV NS3 protease	-	0.4 µM
C=C[C@H]1CC1(NC(=O)[C@@H]1C[C@@H](Oc2cc(-c3ccccc3)nc3ccccc23)CN1C(=O)[C@@H](NC(C)=O)C1CCCCC1)C(=O)O	IC50	-	-	HCV NS3/NS4A protease	-	1.9 µM
CC(=O)N[C@@H](CCC(=O)O)C(=O)N[C@H](C(=O)N[C@@H](CCC(=O)O)C(=O)N[C@@H](CC1CCCCC1)C(=O)N[C@@H](CS)C(=O)O)C(c1ccccc1)c1ccccc1	IC50	-	-	HCV NS3 protease	-	1.4 µM
O=C1/C(=C\c2ccc(Br)cc2)SC(=S)N1NS(=O)(=O)c1ccccc1	IC50	-	-	NS5B polymerase	-	≤30 µM
O=C(O)c1nc(-c2sccc2NC(=O)C2CCNCC2)[nH]c(=O)c1O	IC50	-	-	HCV polymerase	-	<25 µM
C=CCN(C(=O)Cc1ccc(F)cc1Cl)c1cc(-c2ccccc2)sc1C(=O)O	IC50	-	-	NS3 ATPase	-	5–20 µM
CC(C(=O)N[C@H](C(=O)N1C[C@H](OCc2cccc3ccccc23)C[C@H]1C(=O)NC1(C(=O)O)CC1)C1CCCCC1)C1CCCCC1	IC50	-	-	HCV NS3/NS4A protease	-	45 µM
CC[C@H](C)[C@H](NC(=O)[C@@H](NC(=O)[C@H](CCC(=O)O)NC(C)=O)C(c1ccccc1)c1ccccc1)C(=O)N[C@@H](CC1CCCCC1)C(=O)N[C@@H](CS)C(=O)O	IC50	-	-	Full-length NS3	-	1.67 µM
COCCNc1nc(Nc2ccc3[nH]ncc3c2)nc(OC)n1	IC50	-	-	NS5B polymerase	-	>0.1 µg/mL
CC(C)(C)OC(=O)N[C@H](C(=O)N1C[C@H](OCc2cccc3ccccc23)C[C@H]1C(=O)NC1(C(=O)O)CC1)C1CCCCC1	IC50	-	-	HCV NS3/NS4A protease	-	43 µM
NC1CCC(N(C(=O)c2ccc(Cl)cc2Cl)c2cc(-c3ccccc3)sc2C(=O)O)CC1.O=C([O-])C(F)(F)F	IC50	-	-	NS3 ATPase	-	<5 µM
C=CC[C@H](NC(=O)OC(C)(C)C)C(=O)Nc1ccsc1-c1nc(C(=O)O)c(O)c(=O)[nH]1	IC50	-	-	HCV polymerase	-	<25 µM
O=C(O)C(=O)/C=C(\O)c1ccccc1	IC50	-	-	NS5B polymerase	-	6 µM
Cc1onc(-c2ccccc2Cl)c1C(=O)c1ccc(CN(c2ccc(Cl)cc2Cl)[C@@H](Cc2ccccc2)C(=O)O)cc1	IC50	-	-	RNA-dependent RNA polymerase	-	<5 µM
CC(=O)N[C@@H](CCC(=O)O)C(=O)N[C@H](C(=O)N[C@@H](CCC(=O)O)C(=O)N[C@@H](CC1CCCCC1)C(=O)N[C@@H](CS)C(=O)O)C(c1ccccc1)c1ccccc1	IC50	-	-	Full-length NS3	-	0.5511 µM
COc1ccc(CNC(C(=O)Nc2ccsc2-c2nc(C(=O)O)c(O)c(=O)[nH]2)c2ccccc2)cc1	IC50	-	-	HCV polymerase	-	<25 µM
O=C(O)C(Cc1ccccc1)N(Cc1cccc(-c2cc3ccccc3o2)c1)C(=O)c1ccc(Cl)cc1Cl	IC50	-	-	RNA-dependent RNA polymerase	-	5–20 µM
Cc1cccc(S(=O)(=O)Nc2cc(-c3ccccc3)sc2C(=O)O)c1	IC50	-	-	NS3 ATPase	-	5–20 µM
O=c1c(O[C@@H]2C[C@H](CO)[C@@H](O)[C@H](O)[C@H]2O)c(-c2ccc(O)c(O)c2)oc2cc(O)cc(O)c12	inhibition	SYBR Green	20 µM	Replicase complex	J4	25.9%
Cc1cc(-c2nc(C(=O)O)c(O)c(=O)[nH]2)no1	IC50	-	-	HCV polymerase	-	<100 µM
CC(C)[C@H](NC(=O)OC(C)(C)C)C(=O)N1C[C@H](Oc2ccnc3cc(Cl)ccc23)C[C@H]1C(=O)NC1(C(=O)O)CCC1	IC50	-	-	HCV NS3/NS4A protease	-	5.8 µM
CC(CO)N(C(=O)c1ccc(Cl)cc1Cl)c1cc(-c2ccccc2)sc1C(=O)O	IC50	-	-	NS3 ATPase	-	<5 µM
C=CC(=O)NCC(=O)N1C[C@H](Oc2nccc3ccc(Br)cc23)C[C@H]1C(=O)N[C@]1(C(=O)NS(=O)(=O)C2CC2)C[C@H]1C=C	IC50	FRET	-	Nonstructural protein 3/4A	1b C159S	0.685 µM
Cc1cc(SC2=C(O)CC(CCc3ccc(O)cc3)(C3CCCC3)OC2=O)c(C(C)(C)C)cc1N	IC50	-	-	NS5B polymerase	-	1 µM
NCc1ccccc1COC(=O)Nc1ccsc1-c1nc(C(=O)O)c(O)c(=O)[nH]1	IC50	-	-	HCV polymerase	-	<25 µM
C=C[C@H]1CC1(NC(=O)[C@@H]1C[C@@H](Oc2ccnc3ccccc23)CN1C(=O)CNC(=O)OC(C)(C)C)C(=O)O	IC50	-	-	HCV NS3/NS4A protease	-	6.2 µM
COc1ccc(S(=O)(=O)NN2C(=O)/C(=C\c3ccc(Cl)c(Cl)c3)SC2=S)cc1	IC50	-	-	NS5B polymerase	-	≤30 µM
CCN(CC)Cc1c(Cl)cccc1S(=O)(=O)NC(=O)Nc1cscc1-c1nc(C(=O)O)c(O)c(=O)[nH]1	IC50	-	-	HCV polymerase	-	<25 µM
CC(=O)N[C@H](C(=O)N[C@@H](CCC(=O)O)C(=O)N[C@@H](CC1CCCCC1)C(=O)N[C@@H](CS)C(=O)O)C(c1ccccc1)c1ccccc1	IC50	-	-	HCV NS3 protease	-	30 µM
O=c1cc(-c2ccccc2)oc2c(O)c(O)cc(O)c12	inhibition	SYBR Green	20 µM	Replicase complex	J4	47.4%
O=C(O)[C@H](Cc1ccccc1)N(Cc1cccc([N+](=O)[O-])c1)C(=O)c1ccc(Cl)cc1Cl	IC50	-	-	NS5B polymerase	-	0.7 µM
CC(=O)N[C@@H](CC(=O)O)C(=O)N[C@@H](CCC(=O)O)C(=O)N[C@@H](Cc1ccc(O)cc1)C(=O)N[C@@H](CCC(=O)O)C(=O)N[C@@H](CC1CCCCC1)C(=O)N[C@@H](CS)C(=O)O	IC50	-	-	HCV NS3 protease	-	0.236 µM
O=C(O)c1nc(C(OCc2ccccc2)c2cccs2)[nH]c(=O)c1O	IC50	-	-	HCV polymerase	-	<100 µM
CC(=O)N[C@@H](CC(=O)O)C(=O)N[C@@H](CCC(=O)O)C(=O)N[C@@H](Cc1ccc(Cl)cc1)C(=O)N[C@@H](CCC(=O)O)C(=O)N[C@@H](CC1CCCCC1)C(=O)N[C@@H](CS)C(=O)O	IC50	-	-	HCV NS3 protease	-	0.3 µM
C[C@@H]([C@H](O)c1ccccc1)N(C(=O)c1ccc(Cl)cc1Cl)c1cc(-c2ccccc2)sc1C(=O)O.C[Si](C)C(C)(C)C	IC50	-	-	NS3 ATPase	-	5–20 µM
CC(=O)N[C@@H](CC(=O)O)C(=O)N[C@H](Cc1ccc(O)cc1)C(=O)N[C@@H](CC(C)C)C(=O)N[C@@H](CCC(=O)O)C(=O)N[C@@H](CC1CCCCC1)C(=O)N[C@@H](CS)C(=O)O	IC50	-	-	HCV NS3 protease	-	0.68 µM
COc1ccccc1CCOC(=O)Nc1ccsc1-c1nc(C(=O)O)c(O)c(=O)[nH]1	IC50	-	-	HCV polymerase	-	<25 µM
CSCC[C@H](NC(C)=O)C(=O)N[C@@H](CCC(=O)O)C(=O)N[C@@H](CCC(=O)O)C(=O)N[C@@H](CS)C(=O)O	IC50	-	-	HCV NS3 protease	-	150 µM
O=C(Cc1ccc2ccccc2c1)Nc1cccc(-c2nc(C(=O)O)c(O)c(=O)[nH]2)c1	IC50	-	-	HCV polymerase	-	<100 µM
C=CCN(C(=O)Cc1cccc(C)c1)c1cc(-c2ccccc2)sc1C(=O)O	IC50	-	-	NS3 ATPase	-	5–20 µM

Repeating the first 3 entries:

structure	measure	method	tested at	target	strain or isolate	value
O=C(O)[C@H](Cc1ccccc1)N(Cc1cccc(Br)c1)C(=O)c1ccc(Cl)cc1Br	IC50	-	-	RNA-dependent RNA polymerase	-	<5 µM
O=C1/C(=C\c2ccc(Cl)c(Cl)c2)SC(=S)N1NS(=O)(=O)c1cccc([N+](=O)[O-])c1	IC50	-	-	NS5B polymerase	-	≤30 µM
CC(C)[C@H](NC(=O)OC(C)(C)C)C(=O)N1C[C@H](Oc2cc(-c3ccccc3)nc3ccc([N+](=O)[O-])cc23)C[C@H]1C(=O)NC1(C(=O)O)CC1	IC50	-	-	HCV NS3/NS4A protease	-	8.9 µM